Consider 1 substance from publication PMC4635001, “Structural Characterisation of FabG from Yersinia pestis, a Key Component of Bacterial Fatty Acid Synthesis” (PLoS ONE, 2015).

The subject of data set [1] is NC(=O)C1=CN([C@@H]2O[C@H](COP(=O)(O)OP(=O)(O)OC[C@H]3O[C@@H](n4cnc5c(N)ncnc54)[C@H](OP(=O)(O)O)[C@@H]3O)[C@@H](O)[C@H]2O)C=CC1. Briefly: purified protein. The conditions noted are these: pH 7.4; varied: cofactor.
The subject of data set [2] is CC(=O)CC(=O)SCCNC(=O)CCNC(=O)[C@H](O)C(C)(C)COP(=O)(O)OP(=O)(O)OC[C@H]1O[C@@H](n2cnc3c(N)ncnc32)[C@H](O)[C@@H]1OP(=O)(O)O. As to the kind of experiment: purified protein. The settings on record: pH 7.4.

Consider YpFabG (Yersinia pestis), for which the Km in data set [1] came out at 55.1 ± 3.8 µM; in data set [2], 329.9 ± 31.2 µM.

For orientation: Km means the concentration of substrate that gives half-maximal velocity.
